A mixed list of measured activities; the numbers were collected in NIAID ChemDB.

All rows: tests in culture; organism: Candida albicans; measure: MIC100

A number after MIC or MFC names an inhibition level or a share of isolates. Blank or dashed fields: not listed here. Neighbouring rows are from separate reports.

smiles | strain or isolate | method | value
CC1(C)CC[C@@H]2C[C@H]1C2(C)C | ATCC 14053 | broth dilution | 155 µg/mL
CCCCn1cc[n+](COCCCCCOC[n+]2ccn(CCCC)c2)c1 | ATCC 90028 | agar diffusion | 690 µM
Cc1ccc(-c2c3c(N)c4c(nc3nc3c2c(C)nn3-c2ccccc2)CCC4)cc1 | CCC 128 | broth dilution / absorbance | 125 µg/mL
O=C1CSC(N2N=C(c3cccc([N+](=O)[O-])c3)CC2c2cc3ccccc3nc2Cl)=N1 | MTCC 227 |  | 500 µg/mL
Cc1ccc(-c2c3c(N)c4c(nc3nc3c2c(C)nn3-c2ccccc2)CCCC4)cc1 | CCC 128 | broth dilution / absorbance | 31.2 µg/mL
CCCCCCCCCCn1cc[n+](COCCOC[n+]2ccn(CCCCCCCCCC)c2)c1 | ATCC 90028 | agar diffusion | 17 µM
O=C(O[C@@H]1COC(=O)c2cc(O)c(O)c(O)c2-c2c(cc(O)c(O)c2O)C(=O)OC1C1OC(=O)c2cc(O)c(O)c(O)c2-c2c(O)c(O)c(O)c3c2C(=O)OC1[C@H]3O)c1cc(O)c(O)c(O)c1 | SC5314 | broth dilution | >580 µg/mL
C/C(Cl)=C/C=C/C=C/C=C/C=C/C(O)=C1\C(=O)[C@H](CC(N)=O)N(C2OC[C@@H](O)[C@H](O)[C@@H]2O[C@@H]2OC[C@@H](O[C@@H]3O[C@H](C)[C@@H](O)[C@@H]3O)[C@@H](O)[C@@H]2O)C1=O | Amphotericin resistant (ATCC 90873) |  | 31.25 µg/mL
O=C1CSC(N2N=C(c3cccc(F)c3)CC2c2cc3ccccc3nc2Cl)=N1 | MTCC 227 |  | 100 µg/mL
Cc1ccc(-c2c3c(N)c4c(nc3nc3c2c(C)nn3-c2ccccc2)CCCCC4)cc1 | CCC 127 | broth dilution / absorbance | 125 µg/mL
O=C1CSC(N2N=C(c3ccc([N+](=O)[O-])cc3)CC2c2cc3ccccc3nc2Cl)=N1 | MTCC 227 |  | 100 µg/mL
CC1CC(c2ccncc2)Nc2ccc(Br)cc21 | ATCC 10231 |  | >250 µg/mL
O=c1ccc2c(ccc3nc(N4CCN(c5ccccc5)CC4)sc32)o1 | MTCC 183 |  | 500 µg/mL
Nc1[nH]c(=O)ncc1F | ATCC 10239 | broth dilution | 7.8 µg/mL
O=c1[nH]n(-c2ccccc2)c(=O)c2cc3c(cc12)[nH]c1ccc([N+](=O)[O-])cc13 | Clinical isolates | agar | 32 µg/mL
Nc1nc(N)c2c(=O)c3cc(Br)cc(Br)c3oc2n1 | MTCC 227 | broth dilution | >1000 µg/mL
O=C1CSC(N2N=C(c3ccccc3O)CC2c2cc3ccccc3nc2Cl)=N1 | MTCC 227 |  | 1000 µg/mL
Cn1c(=O)ccc2c3sc(N4CCN(C(c5ccccc5)c5ccccc5)CC4)nc3ccc21 | MTCC 183 |  | 200 µg/mL
CN(C)c1ccc2[nH]c3cc4c(=O)[nH]n(-c5ccccc5)c(=O)c4cc3c2c1 | Clinical isolates | agar | >512 µg/mL
Nc1[nH]c(=S)nc2oc3c(Br)cc(Br)cc3c(=O)c12 | MTCC 227 | broth dilution | 500 µg/mL
CCCCCCCCCn1cc[n+](COCCOC[n+]2ccn(CCCCCCCCC)c2)c1 | ATCC 90028 | agar diffusion | 2 µM
COc1ccc(CN2CCN(c3nc4ccc5oc(=O)ccc5c4s3)CC2)c(OC)c1OC | MTCC 183 |  | 25 µg/mL
CCCCCCCCCCCCCCCCn1cc[n+](COCCOC[n+]2ccn(CCCCCCCCCCCCCCCC)c2)c1 | ATCC 90028 | agar diffusion | 108 µM
O=c1[nH]n(-c2ccccc2)c(=O)c2cc3c(cc12)[nH]c1ccc(N2CCNCC2)cc13 | Clinical isolates | agar | 512 µg/mL
CCCCCCCCn1cc[n+](COCCCOC[n+]2ccn(CCCCCCCC)c2)c1 | ATCC 90028 | agar diffusion | 9 µM
C[C@H]1[C@H](O)[C@@H](C)/C=C/C=C/C=C/C=C/C=C/C=C/C=C/[C@H](O[C@@H]2O[C@H](C)[C@@H](O)[C@H](N)[C@@H]2O)C[C@@H]2O[C@](O)(C[C@@H](O)C[C@@H](O)CC[C@H](O)[C@@H](O)C[C@@H](O)CC(=O)O[C@H]1C)C[C@H](O)[C@H]2C(=O)O | CCC 126 | broth dilution / absorbance | 1.56 µg/mL
CCCCCCCCn1cc[n+](COCCOC[n+]2ccn(CCCCCCCC)c2)c1 | ATCC 90028 | agar diffusion | 5 µM
Nc1[nH]c(=S)nc2oc3ccc(Cl)cc3c(=O)c12 | MTCC 227 | broth dilution | 250 µg/mL
O=c1[nH]n(-c2ccccc2)c(=O)c2cc3c(cc12)[nH]c1ccccc13 | Clinical isolates | agar | 64 µg/mL
Nc1[nH]c(=O)nc2oc3c(Br)cc(Br)cc3c(=O)c12 | MTCC 227 | broth dilution | 500 µg/mL
C[C@H]1[C@H](O)[C@@H](C)/C=C/C=C/C=C/C=C/C=C/C=C/C=C/[C@H](O[C@@H]2O[C@H](C)[C@@H](O)[C@H](N)[C@@H]2O)C[C@@H]2O[C@](O)(C[C@@H](O)C[C@@H](O)CC[C@H](O)[C@@H](O)C[C@@H](O)CC(=O)O[C@H]1C)C[C@H](O)[C@H]2C(=O)O | ATCC 10231 | broth dilution | 1 µg/mL
CCCCCCCCCCCCCCn1cc[n+](COCCCCCCOC[n+]2ccn(CCCCCCCCCCCCCC)c2)c1 | ATCC 90028 | agar diffusion | 54 µM
Cn1c(=O)ccc2c3sc(N4CCN(Cc5ccccc5)CC4)nc3ccc21 | MTCC 183 |  | 250 µg/mL
Cc1ccc2c(=O)c3c(N)[nH]c(=S)nc3oc2c1 | MTCC 227 | broth dilution | 250 µg/mL

The last 2 rows once more:

smiles,strain or isolate,method,value
Cn1c(=O)ccc2c3sc(N4CCN(Cc5ccccc5)CC4)nc3ccc21,MTCC 183,,250 µg/mL
Cc1ccc2c(=O)c3c(N)[nH]c(=S)nc3oc2c1,MTCC 227,broth dilution,250 µg/mL